The list shows a part of the results, in another mix than the full data. Results filed as inconclusive are left out. Calls of active or inactive are those of the source.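 Rule for the calls: active = Green signal of the normal strain falls at least twice as much as red signal of the resistant mutant, with overall culture growth loss under a set limit; inconclusive = no clear call, values can overlap the other calls; inactive = the rest.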

The source of these data is PubChem BioAssay AID977622 (Broad Institute, 2014).

This test in a line: growth inhibition of wild-type GFP E. coli, dose response, h38 mutant RFP, cherry-pick (AID 977622). Particulars: E. coli WT ribosome GFP fluorescence, mixed culture, 24 h; at 50 µM (top of the series).
Consider `O=[N+]([O-])c1cc([N+](=O)[O-])c(Nc2nnnn2CCO)c([N+](=O)[O-])c1`, for which the activity change, negative = inhibition was inactive: -10.9.
